Data reported in patent publication US10073089B2 (priority 2011, dated 2018).

Experiments:
Torpedo nAChR = assay: nonradioactive ligand-receptor binding displacement test on ELISA microplate (biotin-α-BgTx displacement from immobilized Torpedo electrocyte membranes); conditions: for IC90: concentration required to inhibit 90% of biotin-α-BgTx binding to Torpedo nAChRs; for inhibition of the biotin-α-BgTx binding with Torpedo nAChR (in words): serial dilutions of standard toxin
[1] = system: torpedo electrocyte membranes; conditions: read-out: Sensitivity (concentration in nM), Arâoz et al., cited from earlier work
[2] = read-out: IC50 (95% CI), 50% inhibition of binding between biotin-α-BgTx and Torpedo nAChRs, Table 1
[3] = read-out: Sensitivity (concentration in nM), Method of the invention, Table 3

13,19-didesmethyl spirolide C
IC90 (Torpedo nAChR): 20 nM
IC50 (Torpedo nAChR; [2]): 3.1 nM
IC50 (Torpedo nAChR; [3]): 3.1 nM

13-desmethyl spirolide C
IC90 (Torpedo nAChR): 60 nM
IC50 (Torpedo nAChR; [2]): 6.84 nM
IC50 (Torpedo nAChR; [3]): 6.84 nM
inhibition of the biotin-α-BgTx binding with Torpedo nAChR (in words) (Torpedo nAChR): inhibit the interaction between α-BgTx and Torpedo nAChR in a concentration-dependent manner
inhibition of the biotin-α-BgTx binding with Torpedo nAChR (in words) (Torpedo nAChR; listed as 13-desmethyl SPX C): competitively inhibit in a dose-dependent manner

anatoxin-a
IC50 ([1]; chemiluminescence detection (CHEM)): 62 nM
IC50 ([1]; visual reading (VISUAL)): 17 nM
IC90 (Torpedo nAChR): 2000 nM
IC50 (Torpedo nAChR; [2]): 68.8 nM
IC50 (Torpedo nAChR; [3]): 68.8 nM
inhibition of the biotin-α-BgTx binding with Torpedo nAChR (in words) (Torpedo nAChR): inhibit the interaction between α-BgTx and Torpedo nAChR in a concentration-dependent manner

d-tubocurarine
inhibition of the biotin-α-BgTx binding with Torpedo nAChR (in words) (Torpedo nAChR): inhibit the interaction between α-BgTx and Torpedo nAChR in a concentration-dependent manner

gymnodimine A
IC90 (Torpedo nAChR): 2000 nM
IC50 (Torpedo nAChR; [2]): 74.2 nM
IC50 (Torpedo nAChR; [3]): 74.2 nM
inhibition of the biotin-α-BgTx binding with Torpedo nAChR (in words) (Torpedo nAChR): inhibit the interaction between α-BgTx and Torpedo nAChR in a concentration-dependent manner

homoanatoxin-a
inhibition of the biotin-α-BgTx binding with Torpedo nAChR (in words) (Torpedo nAChR): inhibit the interaction between α-BgTx and Torpedo nAChR in a concentration-dependent manner

α-bungarotoxin
IC90 (Torpedo nAChR): 70 nM
IC50 (Torpedo nAChR; [2]): 0.27 nM
inhibition of the biotin-α-BgTx binding with Torpedo nAChR (in words) (Torpedo nAChR): competitively inhibit in a dose-dependent manner
inhibition of the biotin-α-BgTx binding with Torpedo nAChR (in words) (Torpedo nAChR; listed as α-bungarotoxin): inhibit the interaction between α-BgTx and Torpedo nAChR in a concentration-dependent manner

Where two headings read alike, the source gives them in different places.
